# The entries are a selection whose mix differs from that of the whole data set. Calls of active or inactive are those of the source. Cut-off read from the data, not from the text of the source: active = activity change below about -65%; inconclusive = mostly about -30% to -63%; inactive = weaker than that.
# System: CtBP / adenovirus E1A interaction (AlphaScreen)
# Test: qHTS Assay for Inhibitors of the CtBP/E1A Interaction
# Conditions: AlphaScreen GST-E1A/His-CtBP binding, 1536-well; active compounds read low
# Excerpt: Carboxyl-terminal binding protein (CtBP) is a co-repressor for many transcription factors. […] Our studies have shown that CtBP is overexpressed in multiple human cancers, including lung, breast, and head and neck cancers. In particular, it is over-expressed in 50% of primary lung cancer and 90% of metastatic lesions. CtBP suppresses epithelial-specific genes as well as genes critical for apoptosis, providing the underlying molecular mechanism for its role in tumorigenesis. […] Based on the above data, we hypothesize that 1) CtBP suppresses the pro-apoptotic and epithelial genes, therefore overexpressed CtBP in human cancer cells increases EMT and cancer survival; 2) decreasing CtBP's function represents a targeted therapy for lung cancer and potentially multiple cancer types. As a co-repressor, CtBP binds to E1A and other transcription factors through a conserved peptide motif to carry out its action. Inhibiting this interaction using small molecules can potentially serve as effective cancer therapeutics.
# To this end, we have developed a homogenous AlphaScreen assay targeting the CtBP/E1A interaction. We performed a large scale HTS of the Molecular Libraries Small Molecule Repository (MLSMR) to identify inhibitors of the CtBP/E1A interaction as potential anti-cancer therapeutics. Compounds identified can also be used as chemical probes to better understand the biological functions of CtBP.
# NIH Chemical Genomics Center [NCGC]
# NIH Molecular Libraries Probe Centers Network [MLPCN]
# Assay Submitter (PI): Rui Zhao, University of Colorado Denver
# The first step of the 5uL AlphaScreen assay is to dispense assay buffer (50 mM Tris, pH 8.0, 300 mM NaCl, 0.05% BSA, 0.02% Tween 20, 1 mM TCEP) into a Greiner 1536 white solid bottom microtiter plate (789175-F). Five microliters is added to Column 1, 4 uL is added to Column 2 and 3 uL is added to Columns 3 through 48. A 5X protein solution (125 nM GST-E1A protein + 125 nM His-tagged CtBP protein) is mixed and 1 uL is dispensed to Columns 3-48. Using a 1536 pintool, 23 nL of compound is transferred to the assay plate and the plate is incubated with a lid at 37 deg C in the dark for two hours. A solution of 5X AlphaScreen beads is mixed (50 ug/mL Glutathione linked donor beads + Nickel chelated acceptor beads) and 1 uL is dispensed to Columns 2-48. The assay plate is incubated for one hour, with a lid, at 37 deg C in the dark. The plate is read using a Perkin Elmer Envision using an AlphaScreen protocol.
# % is set by controls: 0 for no effect and ±100 for the full control effect.
row,SMILES,activity change
1,CC1(CBr)Cn2c(nc3ccccc3c2=O)S1 (stereo unspecified),inactive: 11%
2,Cc1nc2ccc3ccccc3c2s1.O=[N+]([O-])c1cc([N+](=O)[O-])c(O)c([N+](=O)[O-])c1,inactive: 2.04%
3,CC(C)/C=N\N=C(\N)N[N+](=O)[O-],inactive: -9.3%
4,CN(C(=O)Cc1ccc(Cl)c(Cl)c1)[C@@H]1CCCC[C@H]1N1CCCC1,inactive: -17.5%
5,COc1ccccc1CNC(=O)COC(=O)C(O)(c1ccccc1)c1ccccc1,inactive: -1.61%
6,CN(Cc1cccnc1)C(=O)COc1ccc(Cl)c(Cl)c1.O=[N+]([O-])c1cc([N+](=O)[O-])c(O)c([N+](=O)[O-])c1,inactive: 0.894%
7,O=P1(N(CCCl)CCCl)NCCC(C(F)(F)F)O1 (stereo unspecified),inactive: 0.3%
8,Clc1n[nH]nc1-c1nn[nH][15n]1,inactive: -2.1%
9,CN(CCCl)Cc1cc(Cl)c(NC2=NCCN2)c(Cl)c1,inactive: -15%
10,CCOP(=O)(NC(=NC(C)c1ccccc1)NC(C)c1ccccc1)OCC (stereo unspecified),inactive: 4.93%
11,Nc1ccc(CCCCOc2ccccc2)cc1.O=[N+]([O-])c1cc([N+](=O)[O-])c(O)c([N+](=O)[O-])c1,inactive: -17.2%
12,O=[N+]([O-])c1cc([N+](=O)[O-])c(-n2nnc3ccccc32)c([N+](=O)[O-])c1,inactive: -22%
13,O=C(O)C(O)c1ccc(N(CCCl)CCCl)cc1.c1ccncc1 (stereo unspecified),inactive: -16.5%
14,O=P1(Nc2ccccn2)COc2ccccc2OC1,inactive: -7.67%
15,CCC1=CC2Cc3nc4ccc(Cl)cc4c(N)c3C(C1)C2 (stereo unspecified),inactive: -5.01%
16,O=P1(Nc2ccc(Br)cn2)COc2ccccc2OC1,inactive: -0.529%
17,Cc1ccc(OCC(=O)OC2CN3CCC2CC3)cc1 (stereo unspecified),inactive: 1.32%
18,CP(=O)(Nc1ccc(SC(F)(F)F)cc1)Oc1ccccc1 (stereo unspecified),inactive: -0.349%
19,CCCOc1ccc(NP(C)(=O)Oc2ccc(Cl)cc2)cc1 (stereo unspecified),inactive: -2.4%
20,O=P1(Nc2ncccn2)COc2ccccc2OC1,inactive: 0.411%
21,COc1ccccc1OP(C)(=O)Nc1c(C)cccc1C (stereo unspecified),inactive: 4.58%
22,CN1CCCCC1COC(=O)C1(O)c2ccccc2CCc2ccccc21 (stereo unspecified),inactive: 4.93%
23,CCCC1OP(=O)(Nc2ccccc2)OCC1CC (stereo unspecified),inactive: 6.24%
24,O=C(/C=C/c1ccccc1)OC1CN2CCC1CC2 (stereo unspecified),inactive: -1.74%
25,CN(C)C1(CNC(=O)c2ccc(S(C)(=O)=O)cc2)CCCCC1,inactive: -2.59%
26,COc1cc(C2NCCC3(OCCO3)C2(C)C)cc(OC)c1OC.O=[N+]([O-])c1cc([N+](=O)[O-])c(O)c([N+](=O)[O-])c1 (stereo unspecified),inactive: 12.7%

# From PubChem BioAssay AID651724 (National Center for Advancing Translational Sciences (NCATS), 2012)
